{"source": "paper PMC8123576", "about": "(International Journal of Molecular Sciences, 2021)", "system": "aflatoxin accumulation by A. flavus", "assay": "Aflatoxin accumulation assessment in coconut clarified medium", "format": "cell-based, Aspergillus flavus", "data": [{"substance": "Bis(2-acetylthiophenethiosemicarbazonato) copper(II)", "values": [{"measurement": "containment effect on aflatoxin production compared with the ligand", "setting": "10 to 100 µM", "result": "did not differ from the parent compound"}]}, {"substance": "Bis(2-acetylthiophenethiosemicarbazonato) zinc(II)", "values": [{"measurement": "containment effect on aflatoxin production compared with the ligand", "setting": "25 µM", "result": "significant activity decrease"}, {"measurement": "containment effect on aflatoxin production compared with the ligand", "setting": "10 to 100 µM", "result": "did not differ from the parent compound"}]}]}
